The values that follow come from patent US20030220338A1, “Fungal efflux pump inhibitors” (priority 2001, published 2003).

SMILES strings stand for the structures.

The subject of experiment [1] is Candida albicans YEM15 (over-expressing the CDR1 and CDR2 pumps). Briefly: Checkerboard / broth microdilution assay, potentiation of fluconazole vs. C. albicans. The conditions noted are these: for MPC8 = concentration of efflux pump inhibitor necessary to reduce the fluconazole MIC 8-fold: in combination with fluconazole, strain YEM15; for MIC: Candida albicans, 48 h. Background: Dilution methods test growth across graded concentrations, often in twofold steps.

In experiment [2] the test system is C. glabrata YEM19 (over-expressing the CgCDR1 and CgCDR2 pumps). The experiment can be described thus: Checkerboard / broth microdilution assay, potentiation of fluconazole vs. C. glabrata. The conditions noted are these: for MPC8: in combination with fluconazole, strain YEM19; for MIC: Nakaseomyces glabratus, 48 h.

As to `COc1ccc(N(C(=O)Nc2ccc(F)cc2)C(C)c2nc3cc(F)ccc3c(=O)n2N2CCN(C)CC2)c(OC)c1` (stereo not drawn) [Compound 81], in experiment [1], the “MPC8 = concentration of efflux pump inhibitor necessary to reduce the fluconazole MIC 8-fold” value was determined as 0.5 µg/mL. The MPC8 in experiment [2] was 1 µg/mL.
In the case of `COc1ccc(N(C(=O)Nc2ccc(F)cc2)C(C)c2nc3c(OC)cccc3c(=O)n2N2CCN(C)CC2)c(OC)c1` (stereo not drawn) [Compound 82], in experiment [1], the MIC (commonly the smallest concentration in the dilution series that meets the test's criterion for growth inhibition) was above 32 µg/mL and the “MPC8 = concentration of efflux pump inhibitor necessary to reduce the fluconazole MIC 8-fold” value stood at 8 µg/mL. For the same compound, in experiment [2], the minimal inhibitory concentration (MIC) was above 32 µg/mL and the MPC8 was 8 µg/mL.
Take `COc1ccc(N(C(=O)Nc2ccc(Cl)cc2)C(C)c2nc3c(OC)cccc3c(=O)n2N2CCN(C)CC2)c(OC)c1` (stereo not drawn) [Compound 83]: in experiment [1], the MIC was above 32 µg/mL and the “MPC8 = concentration of efflux pump inhibitor necessary to reduce the fluconazole MIC 8-fold” value came out at 4 µg/mL. In experiment [2], the MIC was above 32 µg/mL and the MPC8 was 2 µg/mL.
On to `COc1ccc(N(C(=O)Nc2ccc(F)cc2)C(C)c2nc3ccc(O)cc3c(=O)n2N2CCN(C)CC2)c(OC)c1` (stereo not drawn) [Compound 84], for which, in experiment [1], the MIC was above 32 µg/mL and the “MPC8 = concentration of efflux pump inhibitor necessary to reduce the fluconazole MIC 8-fold” value was determined as 16 µg/mL. Further, in experiment [2], the MIC is above 32 µg/mL and the MPC8 stood at 1 µg/mL.
As to `COc1ccc(N(C(=O)Nc2ccc(F)cc2)C(C)c2nc3ccccc3c(=O)n2N2CCN(C(=O)OC(C)(C)C)CC2)c(OC)c1` (stereo not drawn) [Compound 85], in experiment [1], the MIC is above 32 µg/mL and the “MPC8 = concentration of efflux pump inhibitor necessary to reduce the fluconazole MIC 8-fold” value worked out at 0.5 µg/mL. In addition, in experiment [2], the MIC is above 32 µg/mL and the MPC8 was 0.25 µg/mL.
Regarding `COc1ccc(N(C(=O)Nc2cccc(Cl)c2)C(C)c2nc3ccccc3c(=O)n2N2CCN(C(=O)OC(C)(C)C)CC2)c(OC)c1` (stereo not drawn) [Compound 86], in experiment [1], the minimum inhibitory concentration (MIC) was above 32 µg/mL and the “MPC8 = concentration of efflux pump inhibitor necessary to reduce the fluconazole MIC 8-fold” value was found to be 1 µg/mL. Also, in experiment [2], the MIC is above 32 µg/mL and the MPC8 was found to be 2 µg/mL.
Turning to `COc1ccc(N(C(=O)Nc2ccc(F)cc2)C(C)c2nc3ccccc3c(=O)n2N2CCN(C(=O)OC(C)(C)C)CC2)c(OC)n1` (stereo not drawn) [Compound 87], in experiment [1], the MIC was above 32 µg/mL and the “MPC8 = concentration of efflux pump inhibitor necessary to reduce the fluconazole MIC 8-fold” value was 0.5 µg/mL. Besides, in experiment [2], the MIC was above 32 µg/mL and the MPC8 is 2 µg/mL.
With `COc1ccc(N(C(=O)Nc2ccccc2)C(C)c2nc3ccccc3c(=O)n2N2CCN(C(=O)OC(C)(C)C)CC2)c(OC)c1` (stereo not drawn) [Compound 88], in experiment [1], the MIC is above 32 µg/mL and the “MPC8 = concentration of efflux pump inhibitor necessary to reduce the fluconazole MIC 8-fold” value was 1 µg/mL. Further, in experiment [2], the MIC is above 32 µg/mL and the MPC8 was determined as 0.5 µg/mL.
Turning to `COc1ccc(N(C(=O)Nc2cccc(F)c2)C(C)c2nc3ccccc3c(=O)n2N2CCN(C(=O)OC(C)(C)C)CC2)c(OC)c1` (stereo not drawn) [Compound 89], in experiment [1], the MIC is above 32 µg/mL and the “MPC8 = concentration of efflux pump inhibitor necessary to reduce the fluconazole MIC 8-fold” value was 2 µg/mL. In addition, in experiment [2], the MIC was above 32 µg/mL and the MPC8 stood at 2 µg/mL.
As for `CC(c1nc2ccccc2c(=O)n1N1CCN(C(=O)OC(C)(C)C)CC1)N(C(=O)Nc1ccc(F)cc1)c1ccc(F)cc1F` (stereo not drawn) [Compound 90], in experiment [1], the MIC was above 32 µg/mL and the “MPC8 = concentration of efflux pump inhibitor necessary to reduce the fluconazole MIC 8-fold” value came to 0.125 µg/mL. In addition, in experiment [2], the MIC is above 32 µg/mL and the MPC8 is 4 µg/mL.
Take `CCOC(=O)N1CCN(n2c(C(C)N(C(=O)Nc3cccc(Cl)c3)c3ccc(OC)cc3OC)nc3ccc(Cl)cc3c2=O)CC1` (stereo not drawn) [Compound 91]: in experiment [1], the MIC is above 32 µg/mL and the “MPC8 = concentration of efflux pump inhibitor necessary to reduce the fluconazole MIC 8-fold” value amounted to 2 µg/mL. Further, in experiment [2], the MIC was above 32 µg/mL and the MPC8 came to 16 µg/mL.
On to `COc1ccc(N(C(=O)Nc2ccc(F)cc2)C(C)c2nc3ccc(F)cc3c(=O)n2N2CCN(C(=O)OC(C)(C)C)CC2)c(OC)c1` (stereo not drawn) [Compound 93], for which, in experiment [1], the MIC was above 32 µg/mL and the “MPC8 = concentration of efflux pump inhibitor necessary to reduce the fluconazole MIC 8-fold” value was determined as 4 µg/mL. Also, in experiment [2], the MIC was above 32 µg/mL and the MPC8 was found to be 1 µg/mL.
Regarding `CCOC(=O)N1CCN(n2c(C(C)N(C(=O)Nc3ccc(F)cc3)c3ccc(OC)cc3OC)nc3cc(C#N)ccc3c2=O)CC1` (stereo not drawn) [Compound 94], in experiment [1], the MIC was above 32 µg/mL and the “MPC8 = concentration of efflux pump inhibitor necessary to reduce the fluconazole MIC 8-fold” value stood at 2 µg/mL. Also, in experiment [2], the MIC was above 32 µg/mL and the MPC8 was determined as 0.5 µg/mL.
In the case of `CCOC(=O)N1CCN(n2c(C(C)N(C(=O)Nc3ccc(Cl)cc3)c3ccc(OC)cc3OC)nc3c(OC)cccc3c2=O)CC1` (stereo not drawn) [Compound 96], in experiment [1], the MIC is above 32 µg/mL and the “MPC8 = concentration of efflux pump inhibitor necessary to reduce the fluconazole MIC 8-fold” value came out at 32 µg/mL. In experiment [2], the MIC was above 32 µg/mL and the MPC8 was determined as 8 µg/mL.
For the compound `COc1ccc(N(C(=O)Nc2ccc(F)cc2)C(C)c2nc3ccccc3c(=O)n2N2CCN(C(=O)OCCn3ccnc3)CC2)c(OC)c1` (stereo not drawn) [Compound 97], in experiment [1], the MIC is above 32 µg/mL and the “MPC8 = concentration of efflux pump inhibitor necessary to reduce the fluconazole MIC 8-fold” value came out at 0.25 µg/mL. In experiment [2], the MIC is above 32 µg/mL and the MPC8 was determined as 0.5 µg/mL.
Turning to `COc1ccc(N(C(=O)Nc2ccc(F)cc2)C(C)c2nc3ccccc3c(=O)n2N2CCN(C(=O)OCCN3CCCC3)CC2)c(OC)c1` (stereo not drawn) [Compound 98], in experiment [1], the MIC is above 32 µg/mL and the “MPC8 = concentration of efflux pump inhibitor necessary to reduce the fluconazole MIC 8-fold” value worked out at 8 µg/mL. Moreover, in experiment [2], the MIC was above 32 µg/mL and the MPC8 turned out to be 0.5 µg/mL.
On to `COc1ccc(N(C(=O)Nc2ccc(F)cc2)C(C)c2nc3ccccc3c(=O)n2N2CCN(C(=O)OCCN3CCC(O)C3)CC2)c(OC)c1` (stereo not drawn) [Compound 99], for which, in experiment [1], the MIC was above 32 µg/mL and the “MPC8 = concentration of efflux pump inhibitor necessary to reduce the fluconazole MIC 8-fold” value amounted to 16 µg/mL. Besides, in experiment [2], the MIC is above 32 µg/mL and the MPC8 worked out at 1 µg/mL.
As for `COc1ccc(N(C(=O)Nc2ccc(F)cc2)C(C)c2nc3ccccc3c(=O)n2N2CCN(C(=O)OCCN3CCCCC3)CC2)c(OC)c1` (stereo not drawn) [Compound 100], in experiment [1], the MIC was above 32 µg/mL and the “MPC8 = concentration of efflux pump inhibitor necessary to reduce the fluconazole MIC 8-fold” value came out at 1 µg/mL. In experiment [2], the MIC was above 32 µg/mL and the MPC8 was found to be 0.25 µg/mL.
On to `COc1ccc(N(C(=O)Nc2ccc(F)cc2)C(C)c2nc3ccccc3c(=O)n2N2CCN(C(=O)OCCN3CCOCC3)CC2)c(OC)c1` (stereo not drawn) [Compound 101], for which, in experiment [1], the MIC was above 32 µg/mL and the “MPC8 = concentration of efflux pump inhibitor necessary to reduce the fluconazole MIC 8-fold” value amounted to 0.5 µg/mL. For the same compound, in experiment [2], the MIC is above 32 µg/mL and the MPC8 worked out at 0.125 µg/mL.
`COc1ccc(N(C(=O)Nc2ccc(F)cc2)C(C)c2nc3ccccc3c(=O)n2N2CCN(C(=O)OCCN3CCN(C)CC3)CC2)c(OC)c1` (stereo not drawn) [Compound 102]: in experiment [1], the MIC was above 32 µg/mL and the “MPC8 = concentration of efflux pump inhibitor necessary to reduce the fluconazole MIC 8-fold” value was found to be 16 µg/mL. Moreover, in experiment [2], the MIC was above 32 µg/mL and the MPC8 is 0.5 µg/mL.
Regarding `COc1ccc(N(C(=O)Nc2ccc(F)cc2)C(C)c2nc3ccccc3c(=O)n2N2CCN(C(=O)OCCN3CCSCC3)CC2)c(OC)c1` (stereo not drawn) [Compound 103], in experiment [1], the minimum inhibitory concentration (MIC) is above 32 µg/mL and the “MPC8 = concentration of efflux pump inhibitor necessary to reduce the fluconazole MIC 8-fold” value was 1 µg/mL. Moreover, in experiment [2], the MIC was above 32 µg/mL and the MPC8 came to 0.25 µg/mL.
For the compound `COc1ccc(N(C(=O)Nc2ccc(F)cc2)C(C)c2nc3ccccc3c(=O)n2N2CCN(C(=O)OCCC#N)CC2)c(OC)c1` (stereo not drawn) [Compound 104], in experiment [1], the MIC was above 32 µg/mL and the “MPC8 = concentration of efflux pump inhibitor necessary to reduce the fluconazole MIC 8-fold” value came to 0.25 µg/mL. Also, in experiment [2], the MIC is above 32 µg/mL and the MPC8 stood at 0.25 µg/mL.
With `COc1ccc(N(C(=O)Nc2ccc(F)cc2)C(C)c2nc3ccccc3c(=O)n2N2CCN(C(=O)OCCSc3nncs3)CC2)c(OC)c1` (stereo not drawn) [Compound 105], in experiment [1], the MIC is above 32 µg/mL and the “MPC8 = concentration of efflux pump inhibitor necessary to reduce the fluconazole MIC 8-fold” value worked out at 0.5 µg/mL. In experiment [2], the MIC is above 32 µg/mL and the MPC8 is 0.25 µg/mL.
Regarding `COc1ccc(N(C(=O)Nc2ccc(F)cc2)C(C)c2nc3ccccc3c(=O)n2N2CCN(C(=O)OCCSc3ncc[nH]3)CC2)c(OC)c1` (stereo not drawn) [Compound 106], in experiment [1], the MIC is above 32 µg/mL and the “MPC8 = concentration of efflux pump inhibitor necessary to reduce the fluconazole MIC 8-fold” value worked out at 2 µg/mL. Further, in experiment [2], the MIC is above 32 µg/mL and the MPC8 turned out to be 0.25 µg/mL.
For `COc1ccc(N(C(=O)Nc2ccc(F)cc2)C(C)c2nc3ccccc3c(=O)n2N2CCN(C(=O)OCCSc3nccn3C)CC2)c(OC)c1` (stereo not drawn) [Compound 107], in experiment [1], the MIC was above 32 µg/mL and the “MPC8 = concentration of efflux pump inhibitor necessary to reduce the fluconazole MIC 8-fold” value worked out at 2 µg/mL. In experiment [2], the MIC is above 32 µg/mL and the MPC8 was determined as 0.25 µg/mL.
Regarding `COc1ccc(N(C(=O)Nc2ccc(F)cc2)C(C)c2nc3ccccc3c(=O)n2N2CCN(C(=O)OCCN3C(=O)CCC3=O)CC2)c(OC)c1` (stereo not drawn) [Compound 108], in experiment [1], the MIC was above 32 µg/mL and the “MPC8 = concentration of efflux pump inhibitor necessary to reduce the fluconazole MIC 8-fold” value came to 2 µg/mL. Besides, in experiment [2], the MIC was above 32 µg/mL and the MPC8 came to 0.5 µg/mL.
On to `COc1ccc(N(C(=O)Nc2ccc(F)cc2)C(C)c2nc3ccccc3c(=O)n2N2CCN(C(=O)OCCNc3nncs3)CC2)c(OC)c1` (stereo not drawn) [Compound 109], for which, in experiment [1], the MIC was above 32 µg/mL and the “MPC8 = concentration of efflux pump inhibitor necessary to reduce the fluconazole MIC 8-fold” value came out at 1 µg/mL. For the same compound, in experiment [2], the MIC is above 32 µg/mL and the MPC8 is 0.5 µg/mL.
For `COc1ccc(N(C(=O)Nc2ccc(F)cc2)C(C)c2nc3ccccc3c(=O)n2N2CCN(CC(N)=O)CC2)c(OC)c1` (stereo not drawn) [Compound 111], in experiment [1], the MIC was above 32 µg/mL and the “MPC8 = concentration of efflux pump inhibitor necessary to reduce the fluconazole MIC 8-fold” value is 1 µg/mL. In addition, in experiment [2], the MIC is above 32 µg/mL and the MPC8 is 4 µg/mL.
Turning to `COc1ccc(N(C(=O)Nc2ccc(F)cc2)C(C)c2nc3ccccc3c(=O)n2N2CCN(CC(=O)N3CCOCC3)CC2)c(OC)c1` (stereo not drawn) [Compound 112], in experiment [1], the MIC was above 32 µg/mL and the “MPC8 = concentration of efflux pump inhibitor necessary to reduce the fluconazole MIC 8-fold” value was 0.25 µg/mL. Also, in experiment [2], the MIC is above 32 µg/mL and the MPC8 amounted to 0.25 µg/mL.
